Assay results: ChEMBL document CHEMBL4011590, “Structure-activity relationship studies on 3,5-dinitrophenyl tetrazoles as antitubercular agents” (Eur J Med Chem, 2017)
≈ marks a conversion by molar mass, not a printed value.

Legend:
Mycobacterium avium [1] = test: Antimycobacterial activity against Mycobacterium avium CNCTC My 330/80 after 14 days by micromethod
Mycobacterium avium [2] = test: Antimycobacterial activity against Mycobacterium avium CNCTC My 330/80 after 21 days by micromethod
Mycobacterium kansasii [3] = test: Antimycobacterial activity against Mycobacterium kansasii isolate 6509/96 after 21 days by micromethod
[4] = test system: Mycobacterium tuberculosis; test: Antimycobacterial activity against Mycobacterium tuberculosis H37Rv CNCTC My 331/88 after 21 days by micromethod
Mycobacterium kansasii [5] = test: Antimycobacterial activity against Mycobacterium kansasii CNCTC My 235/80 after 21 days by micromethod
Mycobacterium kansasii [6] = test: Antimycobacterial activity against Mycobacterium kansasii isolate 6509/96 after 14 days by micromethod
Mycobacterium kansasii [7] = test: Antimycobacterial activity against Mycobacterium kansasii isolate 6509/96 after 7 days by micromethod
Mycobacterium kansasii [8] = test: Antimycobacterial activity against Mycobacterium kansasii CNCTC My 235/80 after 7 days by micromethod
[9] = test system: Mycobacterium tuberculosis; test: Antimycobacterial activity against Mycobacterium tuberculosis H37Rv CNCTC My 331/88 after 14 days by micromethod
Mycobacterium kansasii [10] = test: Antimycobacterial activity against Mycobacterium kansasii CNCTC My 235/80 after 14 days by micromethod

Work on O=[N+]([O-])c1ccc(-n2nnnc2SCn2nnc(-c3cc([N+](=O)[O-])cc([N+](=O)[O-])c3)n2)cc1 yielded an MIC>99 (Mycobacterium avium [1]) of 8 µM (≈ 3.77 µg/mL), an MIC>99 (Mycobacterium avium [2]) of 16 µM (≈ 7.54 µg/mL) and an MIC>99 (Mycobacterium kansasii [3]) of 8 µM (≈ 3.77 µg/mL). The MIC>99 [4] was 0.25 µM (≈ 0.118 µg/mL), the MIC>99 (Mycobacterium kansasii [5]) was 16 µM (≈ 7.54 µg/mL) and the MIC>99 (Mycobacterium kansasii [6]) was 4 µM (≈ 1.89 µg/mL). The MIC>99 (Mycobacterium kansasii [7]) was 2 µM (≈ 0.943 µg/mL), the MIC>99 (Mycobacterium kansasii [8]) was 4 µM (≈ 1.89 µg/mL) and the MIC>99 [9] was 0.125 µM (≈ 0.0589 µg/mL). The MIC>99 (Mycobacterium kansasii [10]) was 8 µM (≈ 3.77 µg/mL).
